43 compounds from PubChem BioAssay AID2234 (The Scripps Research Institute Molecular Screening Center, 2010) can be followed below.

Chains of the proteins cited; added tags and fusions are not shown. Lines headed by an entry give the natural chain unless they say otherwise; changes in a name come on top.
UniProt P03206: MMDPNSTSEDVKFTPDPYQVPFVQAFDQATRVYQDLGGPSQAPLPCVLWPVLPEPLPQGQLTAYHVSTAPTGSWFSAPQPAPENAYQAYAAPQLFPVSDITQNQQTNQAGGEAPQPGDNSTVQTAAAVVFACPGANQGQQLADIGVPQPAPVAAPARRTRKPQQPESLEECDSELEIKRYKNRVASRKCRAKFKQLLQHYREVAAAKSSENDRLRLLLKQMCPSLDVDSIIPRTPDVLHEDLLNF

The list shows a part of the results, in another mix than the full data. Calls of active or inactive are those of the source. Rule as the data show it: active = inhibition above about 33%; inactive = the rest.

In the experiment the target is Lytic switch protein BZLF1 (Epstein-Barr virus (strain B95-8)) (UniProt P03206). The experiment in a line: Zta-DNA interaction blockers, Epstein-Barr virus – biochemical, fluorescence polarization, single concentration, counter-screen for EBNA-1 inhibitor project, primary screen (AID 2234). Particulars: ZTA-DNA binding, at 11 µM, hits give high values.
For `Nc1cccc2c([As](=O)(O)O)cccc12`, the inhibition is inactive: 21.1%. On to `CCOP(=O)(Nc1cccc2ccccc12)OCC`, for which the inhibition was inactive: -20.6%. Consider `COc1cc(C2NCCC3(OCCO3)C2(C)C)cc(OC)c1OC` (stereo not drawn), for which the inhibition is inactive: -8.5%. Take `CS(=O)(=O)c1cc([N+](=O)[O-])c2no[n+]([O-])c2c1`: the inhibition is inactive: 1%. Consider `O=P(Nc1nccs1)(Oc1ccccc1)Oc1ccccc1`, for which the inhibition is inactive: 8.5%. For the compound `O=P(Nc1nccs1)(c1ccccc1)c1nc2ccccc2s1` (stereo not drawn), the inhibition is inactive: -4.88%.

Take `CCOP1(=S)c2c(C)nn(CCC#N)c2N=C(c2ccccc2F)N1C` (stereo not drawn): the inhibition is inactive: 8.49%. With `Nc1ccccc1[As](=O)(O)c1ccccc1`, the inhibition was inactive: 7.03%. On to `O=C(O)COc1ccc([As](=O)(O)O)cc1[N+](=O)[O-]`, for which the inhibition was inactive: -18.7%. Regarding `NC(=O)Nc1ccc([As](=O)(O)O)cc1`, the inhibition is inactive: -4.99%. As for `CN(C(=O)Cc1ccc(Cl)c(Cl)c1)[C@H]1CC[C@@]2(CCCO2)C[C@@H]1N1CCCC1`, the inhibition is inactive: 11.8%. As for `O=[N+]([O-])c1ccc2c(c1)nnn2O`, the inhibition is inactive: 16.3%. The figure for `CN(C)C(=O)c1cc([N+](=O)[O-])cc2c1-c1c(cc([N+](=O)[O-])cc1[N+](=O)[O-])C2=O` is inactive: 3.68%; for `CN(C(=O)Cc1ccccc1)[C@@H]1CC[C@]2(CCCO2)C[C@H]1N1CCCC1` it is inactive: -12%. Regarding `CCOP1(=S)c2c(C)nn(CCC#N)c2N=C(c2ccc(F)cc2)N1C` (stereo not drawn), the inhibition is inactive: -9.34%. The same measure for `N#CCCN(C(=O)COC(=O)C(O)(c1ccccc1)c1ccccc1)c1ccc(F)cc1`: inactive: 4.61%; for `COc1cc(C(=O)NCC2(N3CCOCC3)CCCCC2)ccc1OCC(C)C`: inactive: 3.51%. Take `O=[As](O)(c1ccc(O)cc1)c1ccccc1O`: the inhibition was inactive: -4.91%. The same measure for `C[As](=O)(O)c1cccc(C(=O)O)c1`: inactive: -2.53%; for `Cc1ccc2nc3c(c(C)c2c1)CC(C(Cl)Cl)S3` (stereo not drawn): inactive: -9.84%; for `Cc1ccc(OP(=O)(Nc2ccc([N+](=O)[O-])cn2)Oc2ccc(C)cc2)cc1`: inactive: -6.19%.

On to `CC(C)c1ccc(OP(=O)(Nc2ccccn2)Oc2ccccc2F)cc1` (stereo not drawn), for which the inhibition was inactive: -14.6%. Regarding `ClCCSc1nnc(-c2cccnc2)o1`, the inhibition was inactive: -2.13%. For `O=[N+]([O-])c1cc([N+](=O)[O-])c(-c2ccn[nH]2)s1`, the inhibition is inactive: -17.8%.

Regarding `CC(C)NC(=O)NP(=O)(Oc1ccccc1)Oc1ccccc1`, the inhibition is inactive: -6.35%. The same measure for `CCN(CC)C(=S)SC(NC=O)C(Cl)(Cl)Cl` (stereo not drawn): inactive: -5.92%.

As to `Cc1cc(=O)[nH]c(N[N+](=O)[O-])n1`, the inhibition was inactive: 12.8%. As to `O=C(OC1CN2CCC1CC2)C12CC3CC(CC(C3)C1)C2` (stereo not drawn), the inhibition is inactive: -9.17%. As to `Cc1c2c(nc3ccccc13)SC(C(Cl)Cl)C2` (stereo not drawn), the inhibition is inactive: -2.39%. Consider `COc1cc(I)ccc1[As](=O)(O)O`, for which the inhibition was inactive: -9%. Regarding `COc1ccc2nc(NP(=O)(c3ccccc3)c3ccccc3)sc2c1`, the inhibition is inactive: 5.47%. Regarding `COc1ccc(N/C(=N/P(=O)(N2CCOCC2)N2CCOCC2)N2CCOCC2)cc1`, the inhibition was inactive: -6.09%. For the compound `COP1(=S)c2c(C)nn(CCC#N)c2N=C(c2ccc(F)cc2)N1C` (stereo not drawn), the inhibition was inactive: -15.4%. On to `O=C(Nc1ccncc1[N+](=O)[O-])c1ccc([N+](=O)[O-])cc1[N+](=O)[O-]`, for which the inhibition was inactive: 5.5%. The same measure for `O=C(COc1ccccc1)OC1CN2CCC1CC2` (stereo not drawn): inactive: 0.25%; for `CCOC(=O)c1ccc(NC(=O)C(C)(CCl)SC)cc1` (stereo not drawn): inactive: -9.02%. As for `O=C(OC1CN2CCC1CC2)c1cccc([N+](=O)[O-])c1` (stereo not drawn), the inhibition is inactive: 9.26%.

As to `CCC(C)N(CC(C)C)C(=S)SC(NC(C)=O)C(Cl)(Cl)Cl` (stereo not drawn), the inhibition was inactive: 3.86%.

For the compound `CCOC(=O)Nc1ccc([As](=O)(O)O)c(O)c1`, the inhibition was inactive: 8.53%. Take `Cc1cc(SC(NC(=O)c2ccccc2)C(Cl)(Cl)Cl)nc(C(C)C)n1` (stereo not drawn): the inhibition was inactive: 9.12%. The figure for `CCOC(=O)Nc1cccc([As](=O)(O)O)c1` is inactive: 1.44%. As for `O=P(Nc1ccccn1)(c1cccc2ccccc12)c1cccc2ccccc12`, the inhibition was inactive: 10.5%. Take `Cc1cc(SC(NC=O)C(Cl)(Cl)Cl)ncn1` (stereo not drawn): the inhibition is inactive: -5.67%.
